Results: patent US6555523B1, “Use of cirsiliol and derivatives to treat infections” (priority 1999, dated 2003)

Tested on: parainfluenza HA-1
Assay: CPE-inhibition (microscopic) assay, Protocol A2
Assay type: cell-based, parainfluenza virus
Conditions: ratio CC50 / IC50

**Q.** With O=c1oc2ccccc2cc1-c1ccc(Br)cc1 [3-(4′-Bromophenyl) coumarin, 3-(4′-bromophenyl) coumarin] as the compound, how does the TI read?
**A.** Its TI is 16.

**Q.** C[C@@H]1O[C@@H](O[C@H]2[C@H](Oc3cc(O)c4c(c3)O[C@H](c3ccc(O)cc3)CC4=O)O[C@H](CO)[C@@H](O)[C@@H]2O)[C@H](O)[C@H](O)[C@H]1O [Naringin, 7-neohesperidoside, 5, 4′ dihydroxyflavanone] was tested. Which TI did it give?
**A.** Its TI is 4.0.

**Q.** How did the TI turn out when COc1cc2oc(-c3ccc(O)c(O)c3)cc(=O)c2c(O)c1OC [Cirsiliol, 6,7′-dimethoxy-5,3′,4′-trihydroxyflavone] was run?
**A.** Its TI is 1.6.
